Assay results from patent US20040097594A1 (priority 1998, published 2004).
Where two headings read alike, the source gives them in different places. The match of structure and compound is tentative.

System: HIV-1 (strain IIIB)
Experiment: Antiviral Activity Assay in MT4 Cells (propidium iodide based procedure)
Type: cell-based
Conditions: read-out: IC50 (MT-4 cells), MT4 cells infected with HIV-1 strain IIIB, 5 days, lower line of each compound's entry
[1] = tested form: mixture of the two diastereomers (3R,3aS)

Row | SMILES | IC50 (tested form: 1:1 mixture of the two diastereomers (3R)) [nM] | IC50 [1] [nM]
1 | CN(C)C(=O)CNc1cccc(S(=O)(=O)N(C[C@@H](O)[C@H](Cc2ccccc2)NC(=O)OC2COC3OCCC23)OC2CCCC2)c1 (stereo partly drawn) | < 100 | 
2 | CN1CCN(c2cccc(S(=O)(=O)N(C[C@@H](O)[C@H](Cc3ccccc3)NC(=O)OC3COC4OCCC34)OC3CCCC3)c2)C1 (stereo partly drawn) |  | 100 to 500
3 | CS(=O)(=O)NCCNc1cccc(S(=O)(=O)N(C[C@@H](O)[C@H](Cc2ccccc2)NC(=O)OC2COC3OCCC23)OC2CCCC2)c1 (stereo partly drawn) |  | < 100
